What is called IC50 is the concentration that gives 50% inhibition.

In patent US20050075345A1, “Novel inhibitor compounds specific of secreted non-pancreatic human a2phospholipase of group II” (Yang Ji Chemical Company Ltd., priority 2001, published 2005) one finds IC50 data, which are given here for one compound.

In test [1] the test system is PLA2 of Crotalus durissus terrificus (group II). Put plainly: Fluorometric anti-PLA2 assay, Crotalus durissus terrificus PLA2 (CB). Conditions: read-out: Anti-PLA2 activity IC50 CB Fluo, fluorometric method.
For test [2] the test system is unchanged. Put plainly: UV spectrophotometric anti-PLA2 assay, Crotalus durissus terrificus PLA2 (CB). Conditions: read-out: Anti-PLA2 activity IC50 CB Spectro, UV spectrophotometric method.

For the compound `CCCCCCCCCCCCCCN1CCN(C(=O)c2ccc(Cc3noc(=O)[nH]3)cc2)CC1` [Example 8, 1-[4′-(4,5-dihydro-1,2,4(4H)-5-oxo-oxadiazol-3-ylmethyl)benzoyl]-4-tetradecylpiperazine], the IC50 in test [1] stood at 3.8 µM; in test [2], 2.6 µM.
